Measured values from several laboratories, pooled; numbers as filed in NIAID ChemDB.

Shared fields: host cell toxicity; cell line: HepG2.2.15; read-out: CC50

Neighbouring rows are from separate reports. CCn is the concentration with n% toxicity to the cells.

Nc1nc(=O)c2ncn(CCOCP(=O)(O)O)c2c(=O)[nH]1 ; value: >100 µM
Nc1ccn([C@@H]2CC[C@H](CO)O2)c(=O)n1 ; value: 219 µM
Nc1ccn([C@H]2CC[C@@H](CO)O2)c(=O)n1 ; value: 39 µM
O=c1ccn([C@H]2CC[C@@H](CO)O2)c(=O)[nH]1 ; value: 53 µM
O=C(/C=C/c1ccc(O)c(O)c1)O[C@H]1C[C@@](O)(C(=O)O)C[C@H](O)[C@@H]1O ; read by: MTT ; value: >1840 µM
Nc1nc2c(ncn2[C@@H]2C[C@H](CO)[C@@H](O)C2)c(=O)[nH]1 ; value: 12 µM
Nc1nc2c(ncn2CCC(CO)CO)c(=O)[nH]1 ; value: 89 µM
O=C(/C=C/c1ccc(O)c(O)c1)O[C@H]1[C@@H](OC(=O)/C=C/c2ccc(O)c(O)c2)C[C@](O)(C(=O)O)C[C@@H]1O ; read by: MTT ; value: >1805 µM
O=C(/C=C/c1ccc(O)cc1)[Se]c1ccccc1 ; read by: MTT ; value: >100 µM
CO[C@@H]1O[C@H](COC(=O)/C=C/c2ccc(O)c(O)c2)[C@@H](O)[C@H](O)[C@H]1O ; read by: MTT ; value: >1060 µM
O=C(/C=C/c1ccc(O)c(O)c1)O[C@@H]1[C@@H](OC(=O)/C=C/c2ccc(O)c(O)c2)C[C@@](O)(C(=O)O)C[C@@H]1O ; read by: MTT ; value: >1558 µM
O=c1[nH]cnc2c1ncn2[C@H]1CC[C@@H](CO)O1 ; value: 233 µM
CC[C@H]1OC(O[C@@H]2[C@@H]3[C@](C)(CC[C@H]2C(C)C)[C@H](O)CC[C@]3(C)O)[C@H](O)[C@@H](O)[C@@H]1O ; read by: MTT ; value: 1670 µM
Nc1nc(N)c2ncn([C@H]3CC[C@@H](CO)O3)c2n1 ; value: 230 µM
O=C1CCc2ccccc2[Se]1 ; read by: MTT ; value: >100 µM
CNc1nc(=O)c2ncn([C@@H]3O[C@H](CO)[C@@H](O)[C@H]3O)c2c(=O)[nH]1 ; value: >100 µM
O=c1ccc2cc(O)c(O)cc2o1 ; read by: MTT ; value: >5450 µM
CCc1cn([C@@H]2O[C@H](CO)[C@@H](O)[C@@H]2F)c(=O)[nH]c1=O ; value: 228 µM
O=C(/C=C/C=C/c1ccc(O)c(O)c1)[Se]c1ccccc1 ; read by: MTT ; value: >100 µM
O=C(O)c1ccc(O)cc1 ; read by: MTT ; value: >7000 µM
CC(=O)[C@]1(O)CC[C@@]2(O)[C@]1(C)[C@H](OC(=O)/C=C(\C)C(C)C)CC1[C@@]3(C)CC[C@H](OC(=O)CCCC(=O)O)CC3=CC[C@]12O ; value: >310 µM
O=C(C=Cc1ccc(O)c(O)c1)O[C@@H]1C[C@](O)(C(=O)O)C[C@@H](O)[C@H]1O ; value: >1380 µM
C[C@H]1O[C@@H](O[C@H]2CC[C@@]3(C)[C@@H](CC[C@]4(C)[C@@H]3C=C[C@]35OC[C@@]6(CCC(C)(C)C[C@H]63)[C@H](O)C[C@]54C)[C@]2(C)CO)[C@H](O)[C@@H](O[C@@H]2O[C@H](CO)[C@@H](O)[C@H](O)[C@H]2O)[C@H]1O ; value: 10 µg/mL
Nc1ccn([C@H]2CC[C@@H](CO)O2)c(=O)n1 ; value: 168 µM
O=C1C[C@@H](c2ccc(O)cc2)Oc2cc(OC3O[C@H](CO)[C@@H](O)[C@H](O)[C@H]3O)cc(O)c21 ; read by: MTT ; value: >2550 µM
COc1cc([C@H]2c3cc(O)c(OC)cc3C[C@@H](CO)[C@@H]2CO)ccc1O ; read by: MTT ; value: 201 µM
CCn1cc(C(=O)O)c(=O)c2ccc(C)nc21 ; value: 196 µM
O[N+](CCc1c[nH]c2ccccc12)(Cc1ccccc1)Cc1ccccc1 ; read by: MTT ; value: >100 µM
COC(C)(C)c1cc2c(c(O)c1O)[C@@]1(C)CCCC(C)(C)C1=C[C@@H]2CC(C)=O ; read by: sulforhodamine ; value: 60 µg/mL
O=C(/C=C/c1ccc(O)c(O)c1)[Se]c1ccccc1 ; read by: MTT ; value: >100 µM
CC[N+](O)(CC)CCc1c[nH]c2ccccc12 ; read by: MTT ; value: >100 µM
O=C(/C=C/C=C/c1ccccc1)[Se]c1ccccc1 ; read by: MTT ; value: >100 µM
Nc1nc(=O)n([C@@H]2CC[C@H](CO)O2)cc1F ; value: 438 µM
CO[C@@H]1C[C@H]2C(C)(C)CCC[C@]2(C)C2=C1C(O)=C(C(C)COC(C)=O)C(=O)C2=O ; read by: sulforhodamine ; value: 30 µg/mL
COc1ccc(/C=C/C=C/C(=O)[Se]c2ccccc2)cc1 ; read by: MTT ; value: >100 µM
Cc1cn([C@H]2C[C@H](OP([O-])(=S)OC[C@H]3O[C@@H](n4cnc5c(N)ncnc54)C[C@@H]3O)[C@@H](COP([O-])(=S)O[C@H]3C[C@H](n4ccc(=O)[nH]c4=O)O[C@@H]3CO)O2)c(=O)[nH]c1=O ; value: >300 µM
C[C@@H]1O[C@@H](O[C@H]2[C@H](O)[C@@H](O)[C@H](O[C@H]3CC[C@]4(C)[C@H]5C=C[C@]67OC[C@@]8(CCC(C)(C)C[C@H]86)[C@@H](O)C[C@@]7(C)[C@]5(C)CC[C@H]4C3(C)C)O[C@@H]2CO[C@@H]2O[C@H](CO)[C@@H](O)[C@H](O)[C@H]2O)[C@H](O)[C@H](O)[C@H]1O ; value: >40 µg/mL
COc1ccc([C@H]2OC[C@H]3[C@@H]2CO[C@@H]3c2cc(OC)c(O)c(OC)c2)cc1O ; read by: MTT ; value: 480 µM
CCCCCCCCCCCCNc1nc(=O)c2ncn([C@@H]3O[C@H](CO)[C@@H](O)[C@H]3O)c2c(=O)[nH]1 ; value: 88 µM
CCC[N+](O)(CCC)CCc1c[nH]c2ccccc12 ; read by: MTT ; value: >100 µM
CO[C@@H]1[C@H](OP(O)(=S)OC[C@H]2O[C@@H](n3cnc4c(N)ncnc43)C[C@@H]2O)[C@@H](CO)O[C@H]1n1ccc(=O)[nH]c1=O ; value: >300 µM
Cc1cn([C@H]2CC[C@@H](CO)O2)c(=O)[nH]c1=O ; value: 82 µM
CC(=O)Oc1ccc(-c2cc(=O)c3c(OC(C)=O)c(-c4cc(-c5cc(=O)c6c(OC(C)=O)cc(OC(C)=O)cc6o5)ccc4OC(C)=O)c(OC(C)=O)cc3o2)cc1 ; value: 636 µM

For reference, 2 entries again:

CCC[N+](O)(CCC)CCc1c[nH]c2ccccc12 ; read by: MTT ; value: >100 µM
COc1cc([C@H]2c3cc(O)c(OC)cc3C[C@@H](CO)[C@@H]2CO)ccc1O ; read by: MTT ; value: 201 µM